Source: patent publication US20220324835A1 (Nurix Therapeutics, Inc., priority 2018, published 2022)

How the values were obtained:
[1] = test system: in vitro generated exhausted human T-cells; assay: Exhausted T-cell activation assessed by cytokine secretion (autologous SEB/myeloid cell model); details: exhausted T-cells stimulated with SEB and autologous myeloid cells, 3 days
[2] = test system: in vitro generated exhausted human T-cells; details: exhausted T-cells stimulated with SEB and autologous myeloid cells; for CTLA4 CD4, fold change over baseline: CD4 T-cells; for CTLA4 CD8, fold change over baseline: CD8 T-cells

SMILES | Cytokines GM-CSF, fold change over baseline [1] | Cytokines IFNγ, fold change over baseline [1] | Cytokines IL-2, fold change over baseline [1] | CTLA4 CD4, fold change over baseline [2] | CTLA4 CD8, fold change over baseline [2]
C[C@H](Cc1nncn1C)c1ccnc(NC(=O)c2cccc(C(F)(F)F)n2)c1 [Compound 302, (R)-N-(4-(1-(4-methyl-4H-1,2,4-triazol-3-yl)propan-2-yl)pyridin-2-yl)-6-(trifluoromethyl)picolinamide] | A (A indicates ≤1.40) | A (A indicates ≤1.40) | A (A indicates ≤2.50) | A (A indicates ≤1.40) | A (A indicates ≤1.40)
C[C@H](Cc1nncn1C)c1cccc(NC(=O)c2nc(C(F)(F)F)c[nH]2)c1 [Compound 326, (R)-N-(3-(1-(4-methyl-4H-1,2,4-triazol-3-yl)propan-2-yl)phenyl)-4-(trifluoromethyl)-1H-imidazole-2-carboxamide] | A (A indicates ≤1.40) | C (C indicates >1.61) | C (C indicates >3.01) | A (A indicates ≤1.40) | A (A indicates ≤1.40)
COC1CN(Cc2cc3c(c(C(F)(F)F)c2)CN(c2cccc([C@@](C)(F)C(F)(F)c4nncn4C)c2)C3=O)C1 [Compound 452, (R)-6-((3-methoxyazetidin-1-yl)methyl)-2-(3-(1,1,2-trifluoro-1-(4-methyl-4H-1,2,4-triazol-3-yl)propan-2-yl)phenyl)-4-(trifluoromethyl)isoindolin-1-one] | C (C indicates >1.61) | C (C indicates >1.61) | B (B indicates 2.51-3.00) | C (C indicates >1.61) | C (C indicates >1.61)
Cc1cc(C(=O)Nc2cccc([C@@H](C)Cc3nncn3C)c2)nc(C2CC2)n1 [Compound 325, (S)-2-Cyclopropyl-6-methyl-N-(3-(1-(4-methyl-4H-1,2,4-triazol-3-yl)propan-2-yl)phenyl)pyrimidine-4-carboxamide] | A (A indicates ≤1.40) | A (A indicates ≤1.40) | A (A indicates ≤2.50) | A (A indicates ≤1.40) | A (A indicates ≤1.40)
Cc1n[nH]c(C)c1-c1cc2c(c(C(F)(F)F)c1)CN(c1cccc(C3(Cc4nncn4C)COC3)c1)C2=O [Compound 385, 6-(3,5-dimethyl-1H-pyrazol-4-yl)-2-(3-{3-[(4-methyl-4H-1,2,4-triazol-3-yl)methyl]oxetan-3-yl}phenyl)-4-(trifluoromethyl)-2,3-dihydro-1H-isoindol-1-one] | A (A indicates ≤1.40) | B (B indicates 1.41-1.60) | A (A indicates ≤2.50) | C (C indicates >1.61) | C (C indicates >1.61)
C[C@H](Cc1nncn1C)c1cccc(N2Cc3c(cccc3C(F)(F)F)C2=O)c1 [Compound 255a, (R)-2-(3-(1-(4-methyl-4H-1,2,4-triazol-3-yl)propan-2-yl)phenyl)-4-(trifluoromethyl)isoindolin-1-one] | A (A indicates ≤1.40) | A (A indicates ≤1.40) | A (A indicates ≤2.50) | B (B indicates 1.41-1.60) | B (B indicates 1.41-1.60)
C[C@H](c1cc2c(c(C(F)(F)F)c1)CN(c1cccc(C3(Cc4nncn4C)COC3)c1)C2=O)N1CC[C@H](F)C1 [Compound 413, 6-((R)-1-((S)-3-fluoropyrrolidin-1-yl)ethyl)-2-(3-(3-((4-methyl-4H-1,2,4-triazol-3-yl)methyl)oxetan-3-yl)phenyl)-4-(trifluoromethyl)isoindolin-1-one] | C (C indicates >1.61) | C (C indicates >1.61) | C (C indicates >3.01) | C (C indicates >1.61) | C (C indicates >1.61)
Cn1cnnc1C(F)(F)[C@](C)(F)c1cccc(N2Cc3c(cc(CN4CC[C@@H](F)C4)cc3C(F)(F)F)C2=O)c1 [Compound 450] | B (B indicates 1.41-1.60) | C (C indicates >1.61) | C (C indicates >3.01) | C (C indicates >1.61) | C (C indicates >1.61)
Cn1cnnc1CC1(c2cccc(N3Cc4c(cc(CN5CC[C@H](C#N)C5)cc4C(F)(F)F)C3=O)c2)COC1 [Compound 422, (S)-1-((2-(3-(3-((4-methyl-4H-1,2,4-triazol-3-yl)methyl)oxetan-3-yl)phenyl)-3-oxo-7-(trifluoromethyl)isoindolin-5-yl)methyl)pyrrolidine-3-carbonitrile] | B (B indicates 1.41-1.60) | A (A indicates ≤1.40) | A (A indicates ≤2.50) | C (C indicates >1.61) | C (C indicates >1.61)
Cn1cnnc1[C@@H]1C[C@@H]1c1cccc(N2Cc3c(cccc3C(F)(F)F)C2=O)c1 [Compound 282, 2-(3-((1S,2R)-2-(4-methyl-4H-1,2,4-triazol-3-yl)cyclopropyl)phenyl)-4-(trifluoromethyl)isoindolin-1-one] | A (A indicates ≤1.40) | B (B indicates 1.41-1.60) | B (B indicates 2.51-3.00) | A (A indicates ≤1.40) | A (A indicates ≤1.40)
Cc1cc(C(=O)Nc2cccc([C@H](C)Cc3nncn3C)c2)nc(C2CC2)n1 [Compound 195, (R)-2-cyclopropyl-6-methyl-N-(3-(1-(4-methyl-4H-1,2,4-triazol-3-yl)propan-2-yl)phenyl)pyrimidine-4-carboxamide] | C (C indicates >1.61) | B (B indicates 1.41-1.60) | A (A indicates ≤2.50) | C (C indicates >1.61) | C (C indicates >1.61)
C[C@H](Cc1nncn1C)c1cccc(NC(=O)c2n[nH]c3c2CCC3)c1 [Compound 313, (R)-N-(3-(1-(4-Methyl-4H-1,2,4-triazol-3-yl)propan-2-yl)phenyl)-1,4,5,6-tetrahydrocyclopenta[c]pyrazole-3-carboxamide] | A (A indicates ≤1.40) | A (A indicates ≤1.40) | A (A indicates ≤2.50) | A (A indicates ≤1.40) | A (A indicates ≤1.40)
